# Measured values taken from PMC2625307.
# Key:
# [1] = target: HIV-1 MN-25 envelope (HIV-1 group M)
# [2] = target: HIV-1 NL4.3 envelope (HIV-1 group M)
# [3] = target: HIV-1 SUMA d736-68 envelope (HIV-1 group M)
# [4] = target: HIV-1 SUMA d736-73 envelope (HIV-1 group M)
# [5] = target: HIV-1 MN-8 envelope (HIV-1 group M)
# [6] = target: HIV-1 WEAU 16-8M envelope (HIV-1 group M)
# [7] = target: SIVcpz GAB-1 fl envelope (SIVcpz (P.t.t)) (UniProt P17281)
# [8] = target: SIVcpz GAB-2 62 fl envelope (SIVcpz (P.t.t))
substance,measurement,setting,value
2-domain soluble CD4 (from UniProt P01730 26-208) (domain or fragment),"IC50 of neutralisation, HIV-entry assay on JC53BL-13 indicator cells",[1],36 nM
same,"IC50 of neutralisation, HIV-entry assay on JC53BL-13 indicator cells",[2],2 nM
same,"IC50 of neutralisation, HIV-entry assay on JC53BL-13 indicator cells",[3],2 nM
same,"IC50 of neutralisation, HIV-entry assay on JC53BL-13 indicator cells",[4],56 nM
same,"IC50 of neutralisation, HIV-entry assay on JC53BL-13 indicator cells",[5],0.5 nM
same,"IC50 of neutralisation, HIV-entry assay on JC53BL-13 indicator cells",[6],1 nM
same,"IC50 of neutralisation, HIV-entry assay on JC53BL-13 indicator cells",[7],4 nM
same,"IC50 of neutralisation, HIV-entry assay on JC53BL-13 indicator cells",[8],16 nM
